# Assay results published in patent publication US20230181697A1 (published 2023).
# Molecular target: T1, S1-protein variant of SARS-CoV-2 containing a single mutation (D614G) (SARS-CoV-2, UniProt P0DTC2 16-685)
# T1 construct: domain: S1 subunit
# Test: ELISA, S1 D614G immobilized, rhSP-D titrated (FIG. 4E)
binder,measurement,value
"full length recombinant human rhSP-D produced in human cell line GlycoExpress (GEX), variant Met11, (other) AEMKTYSHRTMPSACTLVMCSSVESGLPGRDGRDGREGPRGEKGDPGLPGAAGQAGMPGQAGPVGPKGDNGSVGEPGPKGDTGPSGPPGPPGVPGPAGREGPLGKQGNIGPQGKPGPKGEAGPKGEVGAPGMQGSAGARGLAGPKGERGVPGERGVPGNTGAAGSAGAMGPQGSPGARGPPGLKGDKGIPGDKGAKGESGLPDVASLRQQVEALQGQVQHLQAAFSQYKKVELFPNGQSVGEKIFKTAGFVKPFTEAQLLCTQAGGQLASPRSAAENAALQQLVVAKNEAAFLSMTDSKTEGKFTYPTGESLVYSNWAPGEPNDDGGSEDCVEIFTNGKWNDRACGEKRLVVCEF",binding result,binds
